Target: recombinant gp160 (HIV (IIIB or MN/LAI))
Assay: SPR
Details: bispecific antibody

HY-[Hx4]-7B2 (from UniProt P01857)
Kd: 0.057 nM

Source: PMC3464217
